{"source": "the supplement of paper PMC9931576", "binders": {"B1": {"name": "BD57-0401 (protein)", "chain 1": "QLQLQESGPGLVKPSETLSLTCRVSGGSIGSSSYYWAWIRQPPGKGLEWIGYIYYSGVTYSNSSLKSRVTISVDTSMNQFSLKLRSVTAADTAVYYCARFVRHCSRTICYTFDYWGQGTLVTVSS", "chain 2": "QSALTQPPSASGSPGQSVTISCTGTSSDVGGYDYVSWYQQHPGKAPKLMIYEVSERPSGVPDRFSGSKSGNTASLTVSGLQTEDEADYYCSSYVGSNVVFGGGTKLTVL"}, "B2": {"name": "BD57-0404 (protein)", "chain 1": "QVQLVQSGTAVKRPGASVRVSCRASGYTFTDFYMHWVRQAPGRGLEWMGIINPSGVGTTYAQKFQDRVSMTTDTSTSTVYMVLSSLISDDTAMYYCARGAGIVPTIRYLDYWGQGTLVTVSA", "chain 2": "DIVMTQSPDSLAVSLGERATINCKSTQSVLYSSSKKNYLAWYQQKAGQPPKLLISWSSTRESGVPDRFSGSGSGTDFTLTISSLQAEDAAVYYCQQYLSTPLTFGQGTKVEIK"}, "B3": {"name": "BD57-0405 (protein)", "chain 1": "QVQLVQSGSELKKPGASVTVSCKAPGYTFRTFSIHWVRQAPGQGLEWMGWINTNTGKPTYAQGFTGRFVFSLDTSVSTAYVQINSLKFDDTAVYYCATVGDVGLGWFDPWGQGTLVTVSS", "chain 2": "SYVLTQPPSVSVAPGKTATIPCGGNNIGTKSVHWYQQKPGQAPVLVIYYDSDRPSGIPERFSGSNSGNTATLTISRVEAGDEADYYCQVWDSSRDHPVFGTGTKVSVL"}, "B4": {"name": "BD55-2101 (protein)", "chain 1": "DVLLVESGGGLVKPGGSLRLSCVASGFPFESYSMNWVRQAPGKGLEWVSSISGDGTLRFYLDSLKGRISISRDNAKNSLYLQLNGLTVDDTAVYYCVREVGTTLTALDYWGPGTLVTVSS", "chain 2": "DIQLTQSPSSLSASVGDRVTITCRPSQTIGNYLNWYQQKPGKAPKLLIFAASSLQSGVPSRFSGSGSGTDFTLTISSLQPEDFATYYCQQSYVSPEWTFGPGTKVEVK"}, "B5": {"name": "BD55-2532 (protein)", "chain 1": "QVQLVQSGSELKKPGASVKVSCKASGYTFSGYAMNWVRQAPGQGLEWMGWINTDSGNPTYAQGITGRFVFSLDTSINTAYLQISSLKAEDTAVYYCATGRVGATSANYFYFYFGLDVWGQGTTLTVSS", "chain 2": "SSELTQPPSVSVSPGQTARITCSGDALTNQYAYWYQQKPGQAPVLLMYQDFERPSGIPERFSGSNSGTTVTLTISGVQAEDEADYYCQSADSSATYVVFGGGTKLTVL"}, "B6": {"name": "BD55-3150 (protein)", "chain 1": "QITLKESGPTLVQPTQTLTLTCSFSGFSLSTRGEGVGWVRQPPGKALDWLAVLYWDDDTRYSPSLRNRITVTKVTSKNQVILRMTNMDPLDTATYFCVRSFTPRVSFDHWFDPWGQGTLVTVSS", "chain 2": "QSVVTQPPSMSGAPRQRVTISCSGSSSNIGHNAVTWYQQFPGKAPRLLIYNDDMKPSGVSDRFSGSRSGTSASLAISGLQSEDEADYYCATWDDSLNGLVFGGGTKLTVL"}}, "note": "Human monoclonal antibodies against the spike receptor-binding domain (heavy:light variable regions). IC50 against pseudoviruses bearing the spike of naturally observed variants; lower = stronger; >10 µg/ml means not reached at the top dose. No active / inactive call. The stated detection limit is 0.0005 µg/ml; values near or below 0.001 µg/ml lie at the floor of the assay."}
{"biological_target": "SARS-CoV-2 Omicron BA.1 spike pseudovirus", "assay": "pseudovirus neutralization IC50; higher = weaker neutralization", "description": "(§1)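 Single-round VSV luciferase pseudovirus mixed with antibody dilutions for 1 h and put on Huh-7 cells for about a day; IC50 from the dose curve.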", "units": {"pseudovirus neutralization IC50": "µg/mL"}}
{"binder": "B1", "pseudovirus neutralization IC50": "> 10"}
{"binder": "B2", "pseudovirus neutralization IC50": "> 10"}
{"binder": "B3", "pseudovirus neutralization IC50": 0.208}
{"binder": "B4", "pseudovirus neutralization IC50": "> 10"}
{"binder": "B5", "pseudovirus neutralization IC50": 0.171}
{"binder": "B6", "pseudovirus neutralization IC50": "> 10"}
{"biological_target": "SARS-CoV-2 Omicron BA.2 spike pseudovirus", "assay": "pseudovirus neutralization IC50; higher = weaker neutralization", "description": "as §1", "units": {"pseudovirus neutralization IC50": "µg/mL"}}
{"binder": "B1", "pseudovirus neutralization IC50": "> 10"}
{"binder": "B2", "pseudovirus neutralization IC50": "> 10"}
{"binder": "B3", "pseudovirus neutralization IC50": 0.262}
{"binder": "B4", "pseudovirus neutralization IC50": "> 10"}
{"binder": "B5", "pseudovirus neutralization IC50": 0.317}
{"binder": "B6", "pseudovirus neutralization IC50": "> 10"}
{"biological_target": "SARS-CoV-2 Omicron BA.2.75 spike pseudovirus", "assay": "pseudovirus neutralization IC50; higher = weaker neutralization", "description": "as §1", "units": {"pseudovirus neutralization IC50": "µg/mL"}}
{"binder": "B1", "pseudovirus neutralization IC50": "> 10"}
{"binder": "B2", "pseudovirus neutralization IC50": "> 10"}
{"binder": "B3", "pseudovirus neutralization IC50": 0.178}
{"binder": "B4", "pseudovirus neutralization IC50": "> 10"}
{"binder": "B5", "pseudovirus neutralization IC50": 0.305}
{"binder": "B6", "pseudovirus neutralization IC50": "> 10"}
{"biological_target": "SARS-CoV-2 Omicron BA.5 spike pseudovirus", "assay": "pseudovirus neutralization IC50; higher = weaker neutralization", "description": "as §1", "units": {"pseudovirus neutralization IC50": "µg/mL"}}
{"binder": "B1", "pseudovirus neutralization IC50": "> 10"}
{"binder": "B2", "pseudovirus neutralization IC50": "> 10"}
{"binder": "B3", "pseudovirus neutralization IC50": 0.181}
{"binder": "B4", "pseudovirus neutralization IC50": "> 10"}
{"binder": "B5", "pseudovirus neutralization IC50": 0.865}
{"binder": "B6", "pseudovirus neutralization IC50": "> 10"}
{"biological_target": "SARS-CoV-2 Omicron BQ.1.1 spike pseudovirus", "assay": "pseudovirus neutralization IC50; higher = weaker neutralization", "description": "as §1", "units": {"pseudovirus neutralization IC50": "µg/mL"}}
{"binder": "B1", "pseudovirus neutralization IC50": "> 10"}
{"binder": "B2", "pseudovirus neutralization IC50": "> 10"}
{"binder": "B3", "pseudovirus neutralization IC50": "> 10"}
{"binder": "B4", "pseudovirus neutralization IC50": "> 10"}
{"binder": "B5", "pseudovirus neutralization IC50": "> 10"}
{"binder": "B6", "pseudovirus neutralization IC50": "> 10"}
{"biological_target": "SARS-CoV-2 Omicron XBB spike pseudovirus", "assay": "pseudovirus neutralization IC50; higher = weaker neutralization", "description": "as §1", "units": {"pseudovirus neutralization IC50": "µg/mL"}}
{"binder": "B1", "pseudovirus neutralization IC50": "> 10"}
{"binder": "B2", "pseudovirus neutralization IC50": "> 10"}
{"binder": "B3", "pseudovirus neutralization IC50": "> 10"}
{"binder": "B4", "pseudovirus neutralization IC50": "> 10"}
{"binder": "B5", "pseudovirus neutralization IC50": "> 10"}
{"binder": "B6", "pseudovirus neutralization IC50": "> 10"}
{"biological_target": "SARS-CoV-2 early D614G spike pseudovirus", "assay": "pseudovirus neutralization IC50; higher = weaker neutralization", "description": "as §1", "units": {"pseudovirus neutralization IC50": "µg/mL"}}
{"binder": "B1", "pseudovirus neutralization IC50": "> 10"}
{"binder": "B2", "pseudovirus neutralization IC50": "> 10"}
{"binder": "B3", "pseudovirus neutralization IC50": 0.111}
{"binder": "B4", "pseudovirus neutralization IC50": "> 10"}
{"binder": "B5", "pseudovirus neutralization IC50": 0.0104}
{"binder": "B6", "pseudovirus neutralization IC50": "> 10"}
